Reference: publication PMC9305358 (The Journal of Biological Chemistry, 2022)

Sequences of proteins named here, by UniProt entry; tags and fusion partners are left off.
UniProt P9WPC9, whole entry: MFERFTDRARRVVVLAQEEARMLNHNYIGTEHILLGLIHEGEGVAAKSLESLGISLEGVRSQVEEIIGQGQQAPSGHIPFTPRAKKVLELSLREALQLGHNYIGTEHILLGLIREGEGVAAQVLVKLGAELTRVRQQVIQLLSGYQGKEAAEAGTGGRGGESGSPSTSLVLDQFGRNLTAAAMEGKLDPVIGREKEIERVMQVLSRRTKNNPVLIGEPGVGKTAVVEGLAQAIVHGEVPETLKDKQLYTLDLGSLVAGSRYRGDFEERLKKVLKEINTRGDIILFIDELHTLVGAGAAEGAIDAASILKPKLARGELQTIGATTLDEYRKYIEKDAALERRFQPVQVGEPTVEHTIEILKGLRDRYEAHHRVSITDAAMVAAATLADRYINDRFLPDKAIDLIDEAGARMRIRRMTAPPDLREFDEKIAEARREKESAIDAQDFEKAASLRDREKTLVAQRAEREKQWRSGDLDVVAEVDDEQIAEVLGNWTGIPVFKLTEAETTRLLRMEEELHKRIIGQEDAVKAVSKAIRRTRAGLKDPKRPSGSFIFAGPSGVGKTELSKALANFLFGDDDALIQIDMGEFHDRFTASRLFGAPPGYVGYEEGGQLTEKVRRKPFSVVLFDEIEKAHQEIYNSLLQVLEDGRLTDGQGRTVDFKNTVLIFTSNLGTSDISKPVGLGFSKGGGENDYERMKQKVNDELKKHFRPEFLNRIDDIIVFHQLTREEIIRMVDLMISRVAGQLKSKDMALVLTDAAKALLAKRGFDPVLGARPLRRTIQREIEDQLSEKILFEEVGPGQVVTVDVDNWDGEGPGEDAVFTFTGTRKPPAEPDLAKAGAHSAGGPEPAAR

Biological target: ClpC1-WT (Mycobacterium tuberculosis, UniProt P9WPC9)

In the case of casein, the “increase of ClpC1 ATPase activity by casein together with ClpP1P2” value is reported as “fourfold”.
